Our source for the percent of parent (Relative fluorescence) and enrichment values is PMC9891525, “High-throughput saturation mutagenesis generates a high-affinity antibody against SARS-CoV-2 variants using protein surface display assay on a human cell” (2023).

Experiment [1] deals with biotinylated recombinant SARS-CoV-2 Beta variant (Lineage B.1.351) spike RBD (UniProt P0DTC2). Put plainly: flow cytometry on cells (HEK 293T antibody surface display system). The conditions noted are these: n = 2 replicates; parent: est. 100; read off a plot.
The target in experiment [2] is biotinylated recombinant SARS-CoV-2 Delta variant (Lineage B.1.617.2) S1 protein. Described as above. The settings on record: n = 2 replicates, read off a plot.
Experiment [3] addresses biotinylated recombinant SARS-CoV-2 wild type spike RBD (UniProt P0DTC2). The experiment is described as above. The conditions noted are these: n = 2 replicates, read off a plot.
The target of experiment [4] is biotinylated recombinant SARS-CoV-2 Delta variant (Lineage B.1.617.2) S1 protein. As to the kind of experiment: HEK 293T antibody surface display library sort (DP3/DP0). The settings on record: n = two independent experiments; read off a plot.
Experiment [5] deals with biotinylated recombinant SARS-CoV-2 Beta variant (Lineage B.1.351) spike RBD (UniProt P0DTC2). Put plainly: HEK 293T antibody surface display library sort (BP/BP0). The conditions noted are these: n = three independent experiments; read off a plot.

In the case of “REGN10987 scFv displayed on the surface of HEK 293T cells D54F”, in experiment [1], the percent of parent (Relative fluorescence) is 270.
Same read-out and setting: for “REGN10987 scFv displayed on the surface of HEK 293T cells D54I” the value was 180.
Same read-out and setting: for “REGN10987 scFv displayed on the surface of HEK 293T cells D54L” the value was 140.
“REGN10987 scFv displayed on the surface of HEK 293T cells D54T”: the percent of parent (Relative fluorescence) in experiment [1] is 180.
“REGN10987 scFv displayed on the surface of HEK 293T cells D54Y”: the percent of parent (Relative fluorescence) in experiment [1] was determined as 320.
On to “REGN10987 scFv displayed on the surface of HEK 293T cells L106N”, for which the percent of parent (Relative fluorescence) in experiment [2] (parent: est. 110) and in experiment [3] (parent: est. 100) was 170 throughout.
With “REGN10987 scFv displayed on the surface of HEK 293T cells L106N; N57A”, the figures for the percent of parent (Relative fluorescence) in experiment [2] (parent: est. 100) and in experiment [3] (parent: est. 100) were 580 and 130, respectively.
In the case of “REGN10987 scFv displayed on the surface of HEK 293T cells L106N; N57F”, in experiment [2] (parent: est. 100), the percent of parent (Relative fluorescence) stood at 380.
Same read-out and setting: for “REGN10987 scFv displayed on the surface of HEK 293T cells L106N; N57T” the value was 520.
“REGN10987 scFv displayed on the surface of HEK 293T cells N57A”: the enrichment in experiment [4] was 6.4 log2(FC). Further, the percent of parent (Relative fluorescence) was 200 in experiment [2] (parent: est. 110) and 160 in experiment [3] (parent: est. 100).
In the case of “REGN10987 scFv displayed on the surface of HEK 293T cells N57F”, the percent of parent (Relative fluorescence) in experiment [2] (parent: est. 110) was determined as 230; in experiment [3] (parent: est. 100), 150.
With “REGN10987 scFv displayed on the surface of HEK 293T cells N57H”, the percent of parent (Relative fluorescence) in experiment [1] was found to be 170.
In the case of “REGN10987 scFv displayed on the surface of HEK 293T cells N57T”, the percent of parent (Relative fluorescence) in experiment [2] (parent: est. 110) is 240; in experiment [3] (parent: est. 100) it was 160.
On to “REGN10987 scFv displayed on the surface of HEK 293T cells S97Y”, for which, in experiment [5], the enrichment was 2.6 log2(FC). Besides, the percent of parent (Relative fluorescence) in experiment [1] worked out at 190.
In the case of “REGN10987 scFv displayed on the surface of HEK 293T cells S97Y; D54F”, the percent of parent (Relative fluorescence) in experiment [1] was determined as 160.
Regarding “REGN10987 scFv displayed on the surface of HEK 293T cells S97Y; D54F; N57H”, the percent of parent (Relative fluorescence) in experiment [1] was determined as 160.
On to “REGN10987 scFv displayed on the surface of HEK 293T cells S97Y; D54I”, for which the percent of parent (Relative fluorescence) in experiment [1] came out at 320.
In the case of “REGN10987 scFv displayed on the surface of HEK 293T cells S97Y; D54I; N57H”, the values for the percent of parent (Relative fluorescence) in experiment [1] and in experiment [3] (parent: est. 110) were 310 and 250, respectively.
As for “REGN10987 scFv displayed on the surface of HEK 293T cells S97Y; D54L”, the percent of parent (Relative fluorescence) in experiment [1] stood at 260.
With “REGN10987 scFv displayed on the surface of HEK 293T cells S97Y; D54L; N57H”, the values for the percent of parent (Relative fluorescence) in experiment [1] and in experiment [3] (parent: est. 110) were 280 and 250, respectively.
On to “REGN10987 scFv displayed on the surface of HEK 293T cells S97Y; D54T”, for which, in experiment [1], the percent of parent (Relative fluorescence) worked out at 270.
Same read-out and setting: next, “REGN10987 scFv displayed on the surface of HEK 293T cells S97Y; D54T; N57H”: 280; “REGN10987 scFv displayed on the surface of HEK 293T cells S97Y; D54Y”: 200.
On the same count and under the same terms, for “REGN10987 scFv displayed on the surface of HEK 293T cells S97Y; D54Y; N57H” the value was 220.
For the substance “REGN10987 scFv displayed on the surface of HEK 293T cells S97Y; N57H”, the percent of parent (Relative fluorescence) in experiment [1] turned out to be 260.
